Experimental data as given in article PMC7462287, “Cryo-EM structure of the fully-loaded asymmetric anthrax lethal toxin in its heptameric pre-pore state” (2020).

Molecular target: Protective antigen heptameric pre-pore (PA7) (Bacillus anthracis) (UniProt P13423)

## Lethal factor (LF) (from UniProt P15917 34-809)
  stoichiometry N: 3
